The source of these data is the supplement of paper PMC9931576.

Human monoclonal antibodies against the spike receptor-binding domain (heavy:light variable regions). IC50 against pseudoviruses bearing the spike of naturally observed variants; lower = stronger; >10 µg/ml means not reached at the top dose. No active / inactive call. The stated detection limit is 0.0005 µg/ml; values near or below 0.001 µg/ml lie at the floor of the assay.

Common to all, as to assay: pseudovirus neutralization IC50; higher = weaker neutralization
In experiment [1] the target is SARS-CoV-2 Omicron BA.1 spike pseudovirus. On the procedure:
(§1)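 Single-round VSV luciferase pseudovirus mixed with antibody dilutions for 1 h and put on Huh-7 cells for about a day; IC50 from the dose curve.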

Experiment [2] concerns the target SARS-CoV-2 Omicron BA.2 spike pseudovirus. How it is done:
as §1

Experiment [3] addresses SARS-CoV-2 Omicron BA.2.75 spike pseudovirus. On the procedure: as §1
Experiment [4] concerns the target SARS-CoV-2 Omicron BA.5 spike pseudovirus. How it is done: as §1
Experiment [5] has as its target SARS-CoV-2 Omicron BQ.1.1 spike pseudovirus. On the procedure: as §1
Experiment [6] concerns the target SARS-CoV-2 Omicron XBB spike pseudovirus. On the procedure: as §1
The target in experiment [7] is SARS-CoV-2 early D614G spike pseudovirus. How it is done: as §1

B1: BD56-663 (protein)
chain 1: QVQLVESGGGVVQPGRSLRLSCAASGFTFIRNAMHWVRQAPGKGLEWVALMSHDGSTKYYADSVKGRFTISRDNSKNTLYLQMTSLRVEDTAVYYCANQPDSSGYYYPGYLDYWGQGTLVTVSS
chain 2: SYVLTQPPSVSVAPGQTARITCGGDSIGSKNVHWYQQRPGQAPVVVVYYDTDRPSGIPERFSGSNSGNTATLSISRVEAGDEADYYCQVWDSTPDPVVFGGGTKLTVL
Take B1: the “pseudovirus neutralization IC50” value in experiment [1], in experiment [2], in experiment [3], in experiment [4], in experiment [5] and in experiment [6] was over 10 µg/mL each time. For the same molecule, the “pseudovirus neutralization IC50” value in experiment [7] is over 10 µg/mL.

B2: BD56-682 (protein)
chain 1: EVQLVESGGGVVQPGGSLRLSCVASGFNSDDYAMHWVRQAPGKGLEWVSLISGDGGWVDYADSVKGRFTISRDNSKNSLYLQMNSLRGDDTGLYYCAKDTALHWGGAYTGDGAFDIWGQGTMVTVSS
chain 2: QSVLTQPPSASGTPGQRVTISCSGSSSNIATYNVNWYQQFPGTAPKLLIYSNNQRPAGVPDRFSGSKSGTSASLAISGLQSEDEAEYSCAVWDDNLNVPVFGGGTKLTVL
As for B2, the “pseudovirus neutralization IC50” value in experiment [1] is 0.133 µg/mL; in experiment [2], 0.141 µg/mL; in experiment [3], 0.125 µg/mL; in experiment [4], 0.093 µg/mL; in experiment [5] it was over 10 µg/mL; in experiment [6], over 10 µg/mL. Also, the “pseudovirus neutralization IC50” value in experiment [7] is 0.129 µg/mL.

B3: TAU-1109 (protein)
chain 1: QVQLVQSGPEVKKPGASVKVSCKASGYTFTSYSINWVRQAPGQGLEWMGWISTYNGNTNYAQRLQGRVTMTTDTSTGTAHMELRSLRSDDTAIYYCAREEPLYCSGGSCYEFQHWGQGTLVTVSS
chain 2: EIVLTQSPARLSLSPGERATLSCRASQSVSSDLAWYQQKPGQAPRLLIYDASHRATGIPARFSGSGSGTDFTLTISSLEPEDFAVYYCQQRINWPPIFTFGPGTKVDIK
On to B3, for which the “pseudovirus neutralization IC50” value in experiment [1] is 5.88 µg/mL; in experiment [2], 4.75 µg/mL; in experiment [3], 2.22 µg/mL; in experiment [4], over 10 µg/mL; in experiment [5], over 10 µg/mL; in experiment [6] it was over 10 µg/mL. Further, the “pseudovirus neutralization IC50” value in experiment [7] came out at 2.71 µg/mL.

B4: BD56-661 (protein)
chain 1: QVQLVQSGAEVKKPGASVKVSCKASGFTFSAYYVHWVRQAPGQGLEWMGIINPSGTSYAQKFQGRVTMTRDTSTSTVYMELSSLTSEDTAVYYCAREIPPPLGNTWFDPWGQGTLVTVSS
chain 2: SYVLTQPHSVSVAPGKTARITCGGNDIGSKSVHWYQQKPGQAPVLVVHDDNDRPSGIPERFSGSNSANTATLTISRVEAGDEADFYCQVWDGSRDPVVFGGGTKLTVL
Regarding B4, the “pseudovirus neutralization IC50” value in experiment [1], in experiment [2], in experiment [3], in experiment [4], in experiment [5] and in experiment [6] was over 10 µg/mL each time. Also, the “pseudovirus neutralization IC50” value in experiment [7] is 4.38 µg/mL.

B5: BD56-685 (protein)
chain 1: QVQLVQSGAEVKKPGSSIKVSCKWASGGSFSSYPISWVRQAPGQGLEWMGGIIPIFGTPNYAQKFQGRVAITADESTSTAYMELSSLRSDDTGVYYCATEADVVGPTFRYLQYWGQGTLVTVSS
chain 2: DIVMTQSPDSLAVSLGERATINCKSSQSVLLRSNNKNYVAWYQQKPGQPPKLLIYWASTRESGVPDRFSGSGSGTDFTLTISSVQAEDVAVYYCQQYYIVPALTFGGGTKVEIK
In the case of B5, the “pseudovirus neutralization IC50” value in experiment [1] is 3.4 µg/mL; in experiment [2], 2.62 µg/mL; in experiment [3] it was 2.01 µg/mL; in experiment [4], 3.95 µg/mL; in experiment [5], over 10 µg/mL; in experiment [6], over 10 µg/mL. In experiment [7], the “pseudovirus neutralization IC50” value is 3.34 µg/mL.

B6: BD56-686 (protein)
chain 1: QVQLQESGPGLVKPSQTLALTCTVSGGSISSGGYYWSWIRQHPGKGLEWIGYIYYSGITYYNPSLESRVTISIDTSKNQFSLKLRSVTAADTAVYYCARDGPSIAAPSPWFDPWGQGTLVTVSS
chain 2: EIVLTQSPATLSLSPGERATLSCRASQSVSSYLAWYQQKPGQAPRLLIYDASYRATGIPARFSGSGSGTDFTLTISSLEPEDFAVYYCQQRFNWPPFTFGQGTRLEIK
For B6, the “pseudovirus neutralization IC50” value in experiment [1], in experiment [2], in experiment [3], in experiment [4], in experiment [5] and in experiment [6] was over 10 µg/mL throughout. The “pseudovirus neutralization IC50” value in experiment [7] was over 10 µg/mL.

B7: BD56-676 (protein)
chain 1: QVQLVQSGAEVKKPGASVKVSCKASGYTFISYGISWVRQAPGQGLEWMGWITAYNGHTNSAQRLQGRVTMTTDTSTSTAYMELRNLRSDDTAVYYCARDPGYDILTGSYTMNHDAFDIWGQGTLVTVSS
chain 2: SYELTQPSSVSVSPGQTARITCSGDVLAKKYARWFQQRPGQAPVLVIYKDSERPSGVPDRFSGSSSGTTVTLTISGAQVEDEADYYCFSAADNDRVFGGGTKLTVL
Take B7: the “pseudovirus neutralization IC50” value in experiment [1], in experiment [2], in experiment [3], in experiment [4], in experiment [5] and in experiment [6] was over 10 µg/mL throughout. Besides, the “pseudovirus neutralization IC50” value in experiment [7] is over 10 µg/mL.

B8: BD56-657 (protein)
chain 1: QMQLVQSGPEVKKPGTSVKVSCKASGFTFSKSAVQWVRQARGQRLEWIGWIVVGSGDTDYAQKLQGRLTITRDMSTDTAYMEISSLRSEDTAVYYCAAPSCNNTICYDGFNIWGQGTMVSVSS
chain 2: EIVLTQSPGTLSFSPGQRATLSCRASQSVSSNYLGWYQQKPGQAPRLLIYGASSRATGIPDRFSGSGSRTDFTLSISRLEPEDFAVYYCQYYRTSPFTFGPGTKVDLK
For B8, the “pseudovirus neutralization IC50” value is 0.00129 µg/mL in experiment [1]; 0.000765 µg/mL in experiment [2]; 0.00248 µg/mL in experiment [3]; 4.54 µg/mL in experiment [4]; over 10 µg/mL in experiment [5]; over 10 µg/mL in experiment [6]. For the same molecule, the “pseudovirus neutralization IC50” value in experiment [7] was 0.00244 µg/mL.

B9: BD56-690 (protein)
chain 1: HVHLLESGPGLVKPSQTLSLTCTVSGDSISSGGYYWTWIRQLPGKGLEWIGYVHNSGTAYYNPSLKNRATISVDSSRNQFSLKLSSVAAADTAVYYCARDMSDWVGYFDHWGQGILVTVSS
chain 2: EIVLTQSPATVSLSPGGRAALSCRASQSVKTYLAWYQQKPGQAPRLLIYDASYRATDIPARFSGSGSGTDFTLTISSLEPEDSAVYYCQQRSNWPPYTFGQGTKLEI
Turning to B9, the “pseudovirus neutralization IC50” value in experiment [1], in experiment [2], in experiment [3], in experiment [4], in experiment [5] and in experiment [6] was over 10 µg/mL in each case. Moreover, the “pseudovirus neutralization IC50” value in experiment [7] was over 10 µg/mL.

B10: BD56-656 (protein)
chain 1: EVQLVQSGAEVKKPGDSLKISCKTSGYTFTAYCIGWVRQMPGKGLEWMGIVYPSDSKTRYSPSFQGQVTMSADKSITTAYLQWSSLKASDTAMYYCARIAGEPPDFFDYWGQGTLVTVSS
chain 2: SYVLTQTPSVSVAPGKTARITCGGNDIGSKSVQWYQQKPGQAPVMVIYYDSDRPSGIPERFSGSNSGNTATLTISRVEAGDEADYYCQVWDGSSGLFYVFGSGTKVTVL
On to B10, for which the “pseudovirus neutralization IC50” value in experiment [1], in experiment [2], in experiment [3], in experiment [4], in experiment [5] and in experiment [6] was over 10 µg/mL each time. Moreover, in experiment [7], the “pseudovirus neutralization IC50” value is over 10 µg/mL.

B11: BD56-683 (protein)
chain 1: QVQLVESGGGVVQPGRSLRLSCAASGFTFSSYGMHWVRQAPGKGLEWVSVISYDGSNKQYADSVKGRFTISRDNSKNTLYLQMNSLRAEDTAVYFCAKEGGHCSSTICNTKDYFDFWGQGTLVTVFS
chain 2: SYVLTQPPSVSVAPGKTARITCGGDSIGSKGVHWYQQKPGQAPVLVVYDDSDRPSGIPERFSGSNSGNTATLTISRVEAGDEADYYCQVWDSSSGLFYVFGTGTKVTVL
Turning to B11, the “pseudovirus neutralization IC50” value in experiment [1], in experiment [2], in experiment [3], in experiment [4], in experiment [5] and in experiment [6] was over 10 µg/mL each time. Moreover, the “pseudovirus neutralization IC50” value in experiment [7] is over 10 µg/mL.

B12: BD56-669 (protein)
chain 1: QVQLEQSGAEVKKPGSSVKVSCKASGGTFSSYTISWVRQAPGQGLEWMGRIIPILGIPNYAQKFQGRVTVTADRSTSTAYMELSSLRSEDTAVYYCARDQGYSGYGVNWYFDLWGRGTLVIVSS
chain 2: QSVLTQPPSVSGAPGQRVTISCTGSSSNIGAGYDVHWYQHLPGTAPKLLIYGNSNRPSGVPDRFSGSKSGTSASLAITGLQAEDEADYYCQSYDSSLSDCVFGTGTKVTVL
As to B12, the “pseudovirus neutralization IC50” value is 2.3 µg/mL in experiment [1]; 2.51 µg/mL in experiment [2]; 2.11 µg/mL in experiment [3]; over 10 µg/mL in experiment [4]; over 10 µg/mL in experiment [5]; over 10 µg/mL in experiment [6]. Besides, the “pseudovirus neutralization IC50” value in experiment [7] was 2.74 µg/mL.
